# In-gel DMS probing of monomeric and dimeric HIV-1 RNA

Values reported by Ye et al. 2022 (doi:10.1038/s41594-022-00746-2).

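Mutant RNA libraries with 1G, 2G or 3G starts, with or without cap, were folded at 37 °C for 30 min. Monomer and dimer bands were cut from native gels after folding in high salt (300 mM KCl, 5 mM MgCl2) or low salt (40 mM KCl, 0.1 mM MgCl2). Gel slices were treated with 170 mM dimethyl sulfate for 15 min at 37 °C and read by mutational profiling against an ethanol control.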

Sequence of the HIV-1 NL4-3 5' RNA, positions 1 to 437, as numbered in the source:
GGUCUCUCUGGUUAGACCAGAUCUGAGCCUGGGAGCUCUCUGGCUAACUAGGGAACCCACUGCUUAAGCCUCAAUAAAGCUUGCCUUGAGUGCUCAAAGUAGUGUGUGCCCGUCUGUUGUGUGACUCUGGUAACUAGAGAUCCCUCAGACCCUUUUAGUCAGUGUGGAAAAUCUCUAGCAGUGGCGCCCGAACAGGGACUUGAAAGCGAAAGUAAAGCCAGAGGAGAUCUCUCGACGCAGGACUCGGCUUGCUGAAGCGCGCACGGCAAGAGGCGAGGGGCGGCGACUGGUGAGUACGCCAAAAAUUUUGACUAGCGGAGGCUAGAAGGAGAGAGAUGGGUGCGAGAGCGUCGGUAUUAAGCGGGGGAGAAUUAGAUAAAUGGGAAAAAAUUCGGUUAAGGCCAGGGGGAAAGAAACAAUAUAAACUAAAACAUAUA

Scale: normalised reactivity, A and C only; low values point to paired or protected bases, higher values to unpaired ones. One numbering serves 1G, 2G and 3G. A position is written with its base.

position,domain,1G uncapped low-salt dimer,1G uncapped low-salt monomer,2G capped high-salt dimer,2G capped high-salt monomer
C85,PolyA,0.43,0.30,0.40,0.33
A89,PolyA,0.33,0.52,0.34,0.49
C93,PolyA,0.03,0.05,0.03,0.03
C95,PolyA,0.59,0.54,0.55,0.58
A96,PolyA,0.23,0.28,0.21,0.25
A97,PolyA,0.29,0.46,0.30,0.44
A98,PolyA,0.23,0.38,0.26,0.36
A101,PolyA,0.13,0.19,0.14,0.17
C109,U5,0.14,0.13,0.24,0.20
C110,U5,0.09,0.14,0.19,0.20
C111,U5,0.15,0.26,0.26,0.32
C114,none,0.22,0.24,0.26,0.24
A124,none,0.85,1.07,0.92,1.07
C125,PAS,0.07,0.09,0.08,0.08
C127,PAS,0.03,0.05,0.03,0.03
A132,PBS,0.53,0.56,0.50,0.51
A133,PBS,1.58,1.58,1.36,1.47
C134,PBS,0.14,0.14,0.15,0.16
A136,PBS,0.08,0.10,0.10,0.11
A138,PBS,0.10,0.12,0.11,0.13
A140,PBS,0.31,0.39,0.32,0.41
C142,PBS,0.07,0.07,0.07,0.08
C143,PBS,0.03,0.05,0.03,0.03
C144,PBS,0.03,0.05,0.03,0.03
C146,PBS,0.11,0.13,0.12,0.12
A147,PBS,0.44,0.42,0.42,0.45
A149,PBS,0.07,0.11,0.07,0.11
C150,PBS,0.04,0.07,0.04,0.07
C151,PBS,0.73,0.84,0.71,0.77
C152,PBS,0.91,0.86,0.82,0.85
A157,PBS,1.05,0.91,0.91,0.92
C160,PBS,0.03,0.05,0.05,0.05
A161,PBS,0.45,0.48,0.44,0.49
A168,PBS,0.43,0.44,0.43,0.47
A169,PBS,0.72,0.68,0.67,0.73
A170,PBS,0.55,0.55,0.48,0.52
A171,PBS,0.46,0.48,0.45,0.45
C173,PBS,0.03,0.05,0.03,0.03
C175,PBS,0.03,0.05,0.03,0.03
A177,PBS,0.21,0.21,0.24,0.24
C179,PBS,0.68,0.74,0.84,0.81
A180,PBS,0.50,0.55,0.61,0.56
C185,PBS,0.37,0.41,0.45,0.44
C187,PBS,0.04,0.05,0.03,0.03
C188,PBS,0.12,0.09,0.06,0.06
C189,PBS,0.20,0.13,0.10,0.09
A191,PBS,0.36,0.38,0.39,0.40
A192,PBS,0.65,0.74,0.72,0.81
C193,PBS,0.70,0.77,0.79,0.85
A194,PBS,0.82,0.96,0.89,1.05
A198,PBS,0.63,0.58,0.54,0.58
C199,PBS,0.51,0.47,0.45,0.44
A203,PBS,0.52,0.49,0.47,0.50
A204,PBS,0.73,0.68,0.68,0.70
A205,PBS,0.34,0.32,0.33,0.34
C207,PBS,0.69,0.51,0.56,0.45
A209,PBS,0.46,0.46,0.38,0.45
A210,PBS,0.51,0.55,0.45,0.57
A211,PBS,0.44,0.39,0.49,0.43
A214,PBS,0.31,0.27,0.28,0.25